PubChem BioAssay AID624099, ICCB-Longwood | 2012
Purpose: 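Knock-downs relieving repression by E2 of an HPV18 LCR luciferase reporter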 (primary screen). Cell system: human C33A cervical carcinoma cells (HPV-negative) stably expressing BPV1 E2 and an HPV18 LCR luciferase reporter. Reagent: siRNA pool against human genes, 40 nM. Timing: 72 h. Detection: 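Per-well luciferase luminescence, z-scored on each plate against the plate mean and SD with control wells left out, then averaged across three replicate plates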. Reading the numbers: mean z-score and z-score: higher = stronger reporter signal, weaker E2 silencing. Rule for the call: 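Mean z ≥ 2 together with z ≥ 2 in two or more of the three replicates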.
Here is an unselected part of about 21,000 reagents. Of all reagents, 497 (2.4%) are marked active. 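Higher z means weaker E2 silencing; only reporter increases were scored, and knock-downs that hurt cell survival may mask genuine repressor factors.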 Unmarked entries are inactive. The numbers tell different reagents against one gene apart. Reagent sequences are not shown.

The opening 2 records, to show the layout:
mean z-score	z-score, replicate A	z-score, replicate B	z-score, replicate C	gene knocked down	pool no.
-0.76	-0.8	-0.96	-0.53	TOMM40	1
0.55	0.44	0.36	0.84	YJU2	1

Main list, from the start:
mean z-score	z-score, replicate A	z-score, replicate B	z-score, replicate C	gene knocked down	pool no.
-0.76	-0.8	-0.96	-0.53	TOMM40	1
0.55	0.44	0.36	0.84	YJU2	1
-0.57	-0.65	-0.33	-0.73	RAB40A	1
-1.19	-0.78	-1.44	-1.37	C19orf38	1
-2.3	-2.49	-2.13	-2.28	HAUS2	1
-1.29	-1.59	-1.01	-1.26	TBC1D10B	1
0.26	0.05	0.46	0.26	HOXB9	1
0.89	0.74	1.1	0.83	ASB6	1
0.88	0.79	1.25	0.6	HMGN5	1
-0.51	-0.75	-0.5	-0.28	RPS2P45	1
0.34	0.35	0.35	0.32	ACY3	1
0.09	-0.43	0.18	0.53	LOC389153 (retired record)	1
0.15	-0.19	0.37	0.27	CALD1	1
-0.5	-0.74	-0.24	-0.5	EMC10	1
0.62	0.59	0.72	0.55	CXCR1	1
0.08	0.09	0.69	-0.54	LOC339022 (retired record)	1
2.42 (active)	2.91	1.93	2.42	TAS2R39	1
0.27	-0.27	-0.16	1.23	GPX4	1
-0.14	0.08	-0.21	-0.3	PPP1R3E	1
0.95	0.56	0.94	1.35	PUM2	1
-0.41	-0.11	-0.6	-0.53	ADAMTS6	1
2.31 (active)	2.61	2.21	2.1	ADAMTS6	2
-0.48	-0.36	-0.52	-0.55	OSTCP1	1
